The series deals with HIV. As to the kind of experiment: Anti-AIDS (HIV) activity in HIV-infected MT-4 cells (MTT method). Particulars: CC50/EC50, MT-4 cells. In kind it is cell-based. How it is done:
Evaluation method: Test substances having various concentrations were placed in a 96-well microtiter plate along with HIV-infected MT-4 cells (2.5×10^4 /well, MOI: 0.01) immediately after the infection thereof. In order to ascertain the cytotoxicity of the test substance with respect to the MT-4 cells, non-infected cells were cultured in an identical manner along with the test substances of various concentrations. After culturing for 5 days at a temperature of 37° C. in a CO2 incubator, the number of living cells was determined using the MTT method. The antiviral activity is shown in terms of the concentration which prevented 50% of the cytopathogenic effects of the HIV virus (EC50 : 50% effective concentration) and the cytotoxicity is shown in terms of the concentration at which the cytotoxicity of the test substance reaches 50% (CC50 : 50% cytotoxic concentration).Furthermore, the selectivity index (S.I.) is calculated as CC50 /EC50.
(Reference: Pauwels, et al., J. Viral Methods, 20 (1988) 309-321). Using this method, the compounds of Examples 30-43 were tested for anti-HIV activity. The compounds shown in Table 2 (Examples 35~38) are produced by means of novel sulfation methods. For the purposes of comparison, the conventional anti-AIDS agents AZT (3'-azido-2',3'-dideoxythymidine) and dextran sulfate were also tested, and the results thereof are appended as comparative data.
As to “p-(1,1,3,3-tetramethylbutyl)phenyl β-D-galactopyranosyl-(1→4)-{β-D-galactopyranosyl-(1→4)}2 -β-D-glucopyranoside sulfate [Example 43]”, the “SI (selectivity index, CC50/EC50)” value is recorded as greater than 25000.
Take “p-heptyloxyphenyl β-D-glucopyranosyl-(1→3)-{β-D-glucopyranosyl-(1→3)}3 -β-D-glucopyranoside sulfate [Example 33]”: the “SI (selectivity index, CC50/EC50)” value was greater than 1298.
Then dextran sulfate [reference compound], with 2000; and “p-pentylphenyl β-D-glucopyranosyl-(1→3)-{β-D-glucopyranosyl (1→3)}3 -β-D-glucopyranoside sulfate [Example 31]”, with greater than 1333; and “p-octylphenyl β-D-glucopyranosyl-(1→3)-{β-D-glucopyranosyl (1→3)}5 -β-D-glucopyranoside sulfate [Example 34]”, with greater than 3226.
With “p-octylphenyl β-D-glucopyranosyl-(1→3)-{β-D-glucopyranosyl (1→3)}3 -β-D-glucopyranoside sulfate [Example 30]”, the “SI (selectivity index, CC50/EC50)” value is given as greater than 1612.
With “octyloxyphenyl β-D-galactopyranosyl-(1→4)-β-D-galactopyranosyl-(1→4)-β-D-glucopyranoside sulfate [Example 41]” the figure was greater than 892.
With “sulfated p-heptyloxyphenyl β-D-glucopyranosyl-(1→3)-{β-D-glucopyranosyl-(1→3)}3 -β-D-glucopyranoside [Example 32]” the figure was greater than 1389; with “octyloxyphenyl β-D-galactopyranosyl-(1→4)-{β-D-galactopyranosyl-(1→4)}2 -β-D-glucopyranoside sulfate [Example 40]”, greater than 1052; with “p-(1,1,3,3-tetramethylbutyl)phenyl β-D-glucopyranosyl-(1→3)-{β-D-glucopyranosyl-(1→3)}3 -β-D-glucopyranoside sulfate [Example 35]”, greater than 26300.
With “p-(1,1,3,3-tetramethylbutyl)phenyl β-D-glucopyranosyl-(1→3)-{β-D-glucopyranosyl-(1→3)}m -β-D-glucopyranoside sulfate [Example 38]” the figure was greater than 45400; with “heptyloxyphenyl β-D-galactopyranosyl-(1→4)-{β-D-galactopyranosyl-(1→4)}2 -β-D-glucopyranoside sulfate [Example 42]”, greater than 4348; with “octylphenyl β-D-galactopyranosyl-(1→4)-{β-D-galactopyranosyl-(1→4)}2 -β-D-glucopyranoside sulfate [Example 39]”, greater than 1219.
Take “p-heptyloxyphenyl β-D-glucopyranosyl-(1→3)-{β-D-glucopyranosyl (1→3)}3 -β-D-glucopyranoside sulfate [Example 36]”: the “SI (selectivity index, CC50/EC50)” value is greater than 16100.
Then “p-octylphenyl β-D-glucopyranosyl-(1→3)-{β-D-glucopyranosyl (1→3)}3 -β-D-glucopyranoside sulfate [Example 37]”, with greater than 12500.
